Measured values taken from ChEMBL document CHEMBL3822423 (J Med Chem, 2016).

Columns and labels:
Staphylococcus aureus [1] = assay: Ratio of test compound binding affinity to norfloxacin binding affinity to methicillin-resistant Staphylococcus aureus double stranded genomic DNA
Staphylococcus aureus [2] = assay: Binding affinity to methicillin-resistant Staphylococcus aureus double stranded genomic DNA by spectroscopic analysis

Compound CCn1cc(-c2csc(N)n2)c(=O)c2cc(N3CCCC3)c(Cl)cc21 has a Ratio (Staphylococcus aureus [1]) of 1.5 and a K (Staphylococcus aureus [2]) of 3.89 ×10³ L/mol.
